Here are results for 6 molecules from the supplement of paper PMC9931576.

Human monoclonal antibodies against the spike receptor-binding domain (heavy:light variable regions). IC50 against pseudoviruses bearing the spike of naturally observed variants; lower = stronger; >10 µg/ml means not reached at the top dose. No active / inactive call. The stated detection limit is 0.0005 µg/ml; values near or below 0.001 µg/ml lie at the floor of the assay.

B1: XGv-318 (protein)
chain 1: EVQLVESGGGLVQPGGSLRLSCAASGFTFSRYDMHWVRQPTGRGLEWVSSIGTSGDTYYPDSVKGRFTISRENAKNSLYLQMNSLRAGDTAVYFCARGGIVGYTYGNWYFDLWGRGTLVTVSS
chain 2: DIQMTQSPSSLSASVGDRVTITCRASQTISKYLNWYQQKPGKAPKLLIYAASSLQSGVPSRFSGSGSGTDFTLTISGLQPEDFATYYCQQCYSTPPITFGQGTRLEIK
B2: XGv-300 (protein)
chain 1: EVQLVESGGGLMQPGGSLRLSCAASGFIVSRNYMNWVRQAPGKGLEWVSVIYSGGTTDYADSVKGRFTISRDNSMNTLYLQMNSLRVEDTAVYYCARDLVVFGMDVWGQGTTVTVSS
chain 2: DIQLTQSPSSLSASVRDRVTITCRASQGISSYLAWYQQKPGKAPKLLIYAASTLQSGVPSRFSGSGSGTDFTLTITSLQPEDFATYYCQHLNGYPLTFGGGTKVEIK
B3: XGv-177 (protein)
chain 1: EVQLVESGGGLIQPGGSLRLSCAASGVTVSSNYMTWVRQAPGKGLDWVSVIYSGGSTFYADSVKGRFTISRDNSKNTLYLQMNSLRVEDTAVYYCARDLVDYGLDVWGQGTTVTVSS
chain 2: DIQLTQSPSFLSASVGDRVTITCRASQGIASYLAWYQQKPGKPPKLLIYAASTLQSGVPTRFSGSGSGTEFTLTITSLQPEDFATYYCQLLSRHPPTFGGGTKVEI
B4: XGv-227 (protein)
chain 1: EVQLVESGGGLVKPGGSLRLSCAASGFTYSNAWMTWVRQAPGKGLEWVGRVKSKSDGGTTDYAAPVKGRFTISRDDSKKMLYLQMNSLKTEDTAVYYCSTSEIGIVGATELLYWGQGTLLTVSS
chain 2: DIQMTQSPSSLSASVGDRVTITCRASQRINSYLNWYQQKPGKAPNLLIFGASNFQSGVPSRFSGSGSGTDFTLTISSLQPEDFATYYCQQSYITPWTFGQGTKVEMK
B5: XGv-284 (protein)
chain 1: EVQLVESGGGLEQPGRSLRLSCVASGFTFDDYAMHWVRQAPGKGLEWVSGSSWNSGTIGYADSVKGRFIISRDNAMNSLYLHINTLTTEDTALYYCAKDIGSGDGYNFAFDIWGQGTMVTVSS
chain 2: QSVLTQPPSVSGAPGQRVTVSCTGSSSNIGAGFDVHWYQRLPGTAPKLLIYGNNNRPSGVPDRFSGSKSGTSASLAITGLQAEDEADYYCQSYDSSLSGVVFGGGTKLTV
B6: XGv-250 (protein)
chain 1: QVQLVQSGAEVKKPGSSVKVSCKASGNTFSSHSITWVRQAPGQGLEWMGRIMPMLGIANYAQKFQGRVTITADKSTNTAYMDLSSLRSEDTAVYYCACGRLGESSLYLIDYWGQGTLVTVSS
chain 2: NFMLTQPHSVSESPGKTVTISCTRSSGSIASNYVQWYQRRPGSAPTTLIYEDNQRPSGVPDRFSGSIDSSSNSASLIISGLKTEDEADYYCQSYDLSNWVFGGGTKLTVL

The target in one experiment is SARS-CoV-2 Omicron BA.1 spike pseudovirus. Nature of the experiment: pseudovirus neutralization IC50; higher = weaker neutralization. As for the experimental part:
(§1)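 Single-round VSV luciferase pseudovirus mixed with antibody dilutions for 1 h and put on Huh-7 cells for about a day; IC50 from the dose curve.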
As for B1, the “pseudovirus neutralization IC50” value is more than 10 µg/mL.

Turning to B2, the “pseudovirus neutralization IC50” value came out at 0.0806 µg/mL.

Regarding B3, the “pseudovirus neutralization IC50” value is 1.86 µg/mL.

As to B4, the “pseudovirus neutralization IC50” value is 0.492 µg/mL.

Turning to B5, the “pseudovirus neutralization IC50” value came out at 0.0195 µg/mL.

As to B6, the “pseudovirus neutralization IC50” value is more than 10 µg/mL.

The next experiment addresses SARS-CoV-2 Omicron BA.2 spike pseudovirus. Described as above. As for the experimental part:
as §1
Consider B1, for which the “pseudovirus neutralization IC50” value was more than 10 µg/mL.

B2: the “pseudovirus neutralization IC50” value is 0.144 µg/mL.

For B3, the “pseudovirus neutralization IC50” value stood at 0.426 µg/mL.

As to B4, the “pseudovirus neutralization IC50” value turned out to be 0.583 µg/mL.

On to B5, for which the “pseudovirus neutralization IC50” value is 0.154 µg/mL.

For the molecule B6, the “pseudovirus neutralization IC50” value is 0.916 µg/mL.

The next experiment addresses SARS-CoV-2 Omicron BA.2.75 spike pseudovirus. The experiment is described as above. The protocol: as §1
As for B1, the “pseudovirus neutralization IC50” value was more than 10 µg/mL.

Regarding B2, the “pseudovirus neutralization IC50” value was more than 10 µg/mL.

Consider B3, for which the “pseudovirus neutralization IC50” value was found to be 4.44 µg/mL.

On to B4, for which the “pseudovirus neutralization IC50” value amounted to 0.785 µg/mL.

Take B5: the “pseudovirus neutralization IC50” value was found to be 0.672 µg/mL.

Take B6: the “pseudovirus neutralization IC50” value was more than 10 µg/mL.

Another experiment has as its target SARS-CoV-2 Omicron BA.5 spike pseudovirus. The experiment is described as above. The protocol: as §1
As to B1, the “pseudovirus neutralization IC50” value was more than 10 µg/mL.

As for B2, the “pseudovirus neutralization IC50” value was 0.709 µg/mL.

Take B3: the “pseudovirus neutralization IC50” value came to 5.96 µg/mL.

Consider B4, for which the “pseudovirus neutralization IC50” value came out at 5.48 µg/mL.

Turning to B5, the “pseudovirus neutralization IC50” value is more than 10 µg/mL.

With B6, the “pseudovirus neutralization IC50” value is more than 10 µg/mL.

The target in the next experiment is SARS-CoV-2 Omicron BQ.1.1 spike pseudovirus. The description is as above. As for the experimental part:
as §1
With B1, the “pseudovirus neutralization IC50” value is more than 10 µg/mL.

Take B2: the “pseudovirus neutralization IC50” value is more than 10 µg/mL.

Regarding B3, the “pseudovirus neutralization IC50” value was more than 10 µg/mL.

For the molecule B4, the “pseudovirus neutralization IC50” value is more than 10 µg/mL.

With B5, the “pseudovirus neutralization IC50” value was more than 10 µg/mL.

B6: the “pseudovirus neutralization IC50” value is more than 10 µg/mL.

Another experiment addresses SARS-CoV-2 Omicron XBB spike pseudovirus. Described as above. As for the experimental part: as §1
B1: the “pseudovirus neutralization IC50” value was more than 10 µg/mL.

B2: the “pseudovirus neutralization IC50” value was more than 10 µg/mL.

Turning to B3, the “pseudovirus neutralization IC50” value is more than 10 µg/mL.

Regarding B4, the “pseudovirus neutralization IC50” value is more than 10 µg/mL.

Take B5: the “pseudovirus neutralization IC50” value was more than 10 µg/mL.

On to B6, for which the “pseudovirus neutralization IC50” value was more than 10 µg/mL.

Another experiment deals with SARS-CoV-2 early D614G spike pseudovirus. The description is as above. As for the experimental part: as §1
As for B1, the “pseudovirus neutralization IC50” value is 4.31 µg/mL.

On to B2, for which the “pseudovirus neutralization IC50” value is 0.0732 µg/mL.

Turning to B3, the “pseudovirus neutralization IC50” value was 0.0313 µg/mL.

For B4, the “pseudovirus neutralization IC50” value was determined as 0.291 µg/mL.

For the molecule B5, the “pseudovirus neutralization IC50” value worked out at 0.0215 µg/mL.

As to B6, the “pseudovirus neutralization IC50” value turned out to be 0.333 µg/mL.
